A mixed list of measured activities; the numbers were collected in NIAID ChemDB.

All rows: tests in culture; organism: Candida glabrata

Neighbouring rows are from separate reports.

| smiles | read-out | conditions | strain or isolate | method | value |
|---|---|---|---|---|---|
| CCCCCCCC/C=C\CCCCCCCC(=O)N[C@H](C(=O)N1C[C@H](C)C[C@H]1C(=O)N[C@H](C(=O)N[C@@H](CCO)C(=O)N[C@@H](C)CO)C(C)C)[C@@H](C)O | MIC |  | ATCC 90030 | broth dilution / visual reading | >32 µg/mL |
| CCOC(=O)C1C(=O)C=C(c2ccc(F)cc2)CC1c1ccc(C2CC(c3ccc(F)cc3)=CC(=O)C2C(=O)OCC)cc1 | MIC |  | Clinical isolate |  | 12.5 µg/mL |
| Clc1ccc(COC(Cn2ccnc2)c2ccc(Cl)cc2Cl)c(Cl)c1 | MIC |  |  | agar diffusion / agar | 110.8 µg/mL |
| O=[N+]([O-])c1cccc(/C=N\O)c1 | MIC |  |  |  | 3010 µM |
| C[C@H]1[C@H](O)[C@@H](C)/C=C/C=C/C=C/C=C/C=C/C=C/C=C/[C@H](O[C@@H]2O[C@H](C)[C@@H](O)[C@H](N)[C@@H]2O)C[C@@H]2O[C@](O)(C[C@@H](O)C[C@@H](O)CC[C@H](O)[C@@H](O)C[C@@H](O)CC(=O)O[C@H]1C)C[C@H](O)[C@H]2C(=O)O | MIC |  | 90030 | broth dilution | 0.03 µg/mL |
| CCCCCCCC/C=C\CCCCCCCC(=O)NCCCN | MIC |  | ATCC 90030 | broth dilution | 64 µg/mL |
| CCCC[C@@H](C)/C=C(C)/C=C(\C)C(=O)N/C(=C/[C@@](C)(O)/C=C/C=C/C=C/C(=O)NC1=C(O)CCC1=O)C(=O)[C@@H]1CO1 | MIC |  | 1 | broth dilution | 25 µM |
| O=C1O/C(=C\c2ccc(OCC(O)(Cn3cncn3)c3ccc(F)cc3F)cc2)C(c2ccc(F)cc2F)=C1c1ccc(Cl)cc1 | MIC50 |  | ATCC 90030 | broth dilution | 4 µg/mL |
| C=CCc1ccc(OC)c(OC)c1 | MIC90 |  | 2994 | turbidity | 340 µg/mL |
| CCCCCCCCCCCC[n+]1cccc2ccccc21 | MIC | 48 h | 20/I | broth dilution | 0.01562 µg/mL |
| O=C(/C=C/c1cccc(Cl)c1Cl)c1c[nH]c2ccccc12 | MIC |  | ATCC 36583 | broth dilution | 200 µg/mL |
| CCCNS(=O)(=O)c1ccc(CN(C)CC(O)(Cn2cncn2)c2ccc(F)cc2F)cc1 | MIC |  | 468 | resazurin | 1.57 µg/mL |
| O/N=C\c1cccs1 | MIC100 |  |  |  | 3930 µM |
| C[C@@H](c1ncncc1F)[C@](O)(Cn1cncn1)c1ccc(F)cc1F | MIC |  | 8659 | broth dilution | 0.5 µg/mL |
| O=C(/C=C/c1cc(Cl)cc(Cl)c1)c1c[nH]c2ccccc12 | MIC |  | ATCC 36583 | broth dilution | 200 µg/mL |
| COC(=O)[C@H]1[C@@H]2C[C@@H](O[C@@H]3O[C@H](C)[C@@H](O)[C@H](N)[C@@H]3O)/C=C/C=C/C=C/C=C/C=C/C=C/C=C/[C@H](C)[C@@H](O)[C@H](C)[C@H](C)OC(=O)C[C@H](O)C[C@H](O)[C@@H](O)CC[C@H](O)C[C@H](O)C[C@](O)(C[C@@H]1O)O2 | MIC |  | ATCC 90030 |  | 0.24 µM |
| CC[C@@H]([C@H](C)O)n1ncn(-c2ccc(N3CCN(c4ccc(OC[C@@H]5CO[C@@](Cn6cncn6)(c6ccc(F)cc6F)C5)cc4)CC3)cc2)c1=O | MIC90 |  |  | broth dilution | 1 µg/mL |
| COc1ccc(OC/C(=N/O)c2ccccc2)cc1 | MIC | 48 h | ATCC 90030 | broth dilution | >125 µg/mL |
| O/N=C/c1ccc(O)cc1 | MIC100 |  |  |  | >7290 µM |
| CC[C@@]1(O)C[C@H](O[C@H]2C[C@H](N(C)C)[C@H](O[C@H]3C[C@H](O)[C@H](O[C@H]4CCC(=O)[C@H](C)O4)[C@H](C)O3)[C@H](C)O2)c2c(cc3c(c2O)C(=O)c2c(O)cccc2C3=O)[C@H]1C(=O)OC | MIC |  | ATCC 90030 |  | 37.1 µM |
| CN(Cc1ccc(NS(=O)(=O)c2ccc([N+](=O)[O-])cc2)cc1)CC(O)(Cn1cncn1)c1ccc(F)cc1F | MIC |  | 468 | resazurin | 18.3 µg/mL |
| OC(Cn1cncn1)(Cn1cncn1)c1ccc(F)cc1F | MIC |  | Clinical isolates |  | 17.3 µg/mL |
| O=C(COc1cccc(F)c1)c1ccccc1 | MIC | 24 h | ATCC 90030 | broth dilution | >125 µg/mL |
| c1ccc(C(c2ccccc2)n2cnc3ccccc32)cc1 | MFC |  |  | broth dilution | >256 µg/mL |
| COc1cc(OCC(=O)c2ccccc2)cc(OC)c1OC | MIC | 48 h | ATCC 90030 | broth dilution | >125 µg/mL |
| O/N=C\c1ccc(F)cc1 | MIC100 |  |  |  | 7200 µM |
| NC(=O)N/N=C/c1ccsc1/C=N/NC(N)=O | MIC80 |  | LMA 1085 | turbidity / absorbance | >250 µg/mL |
| Nc1ncccc1-c1cc(Cc2ccc(COc3ccccn3)cc2)no1 | MIC50 |  |  | broth dilution | 0.06 µg/mL |
| CC(C)S(=O)(=O)N1CCN(c2cnn(-c3cc(F)cc(F)c3)c(=O)c2OC2CCC(F)C2)CC1 | MIC |  | C110 | broth dilution | 0.25 µg/mL |
| O=C(O)c1ccc(/C=N/NC(=O)c2ccc(CNc3nc4ccccc4[nH]3)cc2)cc1 | MIC |  | ATCC 36583 | broth dilution | 50 µg/mL |
| CCCCCCCCCCCCCCC1=NCCCC1 | MIC |  | ATCC 90030 |  | 20 µg/mL |
| CCCc1ccc(NS(=O)(=O)c2ccc(CN(C)CC(O)(Cn3cncn3)c3ccc(F)cc3F)cc2)cc1 | MIC |  | 468 | resazurin | 1.6 µg/mL |
| c1ccc(C(c2ccccc2)n2cncn2)cc1 | MIC90 |  |  | agar | 0.5 µg/mL |
| O=C(N/N=C/c1ccc(C(F)(F)F)cc1)c1ccc(CNc2nc3ccccc3[nH]2)cc1 | MIC |  | ATCC 36583 | broth dilution | 50 µg/mL |
| Cc1ccc(N2N=C(c3c[nH]c4ccccc34)CC2c2ccc(Cl)c(Cl)c2)cc1 | MIC |  | ATCC 36583 | broth dilution | 100 µg/mL |
| Clc1ccc(C(c2ccccc2)n2cnc3ccccc32)cc1 | MIC90 |  |  | agar | >256 µg/mL |
| CCOc1ccc2nc3cc(N=C4NC(=O)/C(=C\C=C\c5ccc([N+](=O)[O-])o5)S4)ccc3c(N)c2c1 | MIC |  |  | broth dilution | 333 µg/mL |
| O=C(N/N=C/c1ccc(Br)cc1)c1ccc(CNc2nc3ccccc3[nH]2)cc1 | MIC |  | ATCC 36583 | broth dilution | 100 µg/mL |
| O=C(/C=C/c1cc(Cl)ccc1Cl)c1c[nH]c2ccccc12 | MIC |  | ATCC 36583 | broth dilution | 200 µg/mL |
| CCOC(=O)C1C(=O)C=C(c2ccc(C)cc2)CC1c1ccc(C2CC(c3ccc(C)cc3)=CC(=O)C2C(=O)OCC)cc1 | MIC |  | Clinical isolate |  | 100 µg/mL |
| O=C(c1ccccc1)C(c1ccccc1)n1nnc2ccccc21 | MIC90 |  |  | agar | >256 µg/mL |
| O=C(N/N=C/c1ccc([N+](=O)[O-])cc1)c1ccc(CNc2nc3ccccc3[nH]2)cc1 | MIC |  | ATCC 36583 | broth dilution | 25 µg/mL |
| O/N=C(/COc1cccc(Cl)c1)c1ccccc1 | MIC | 48 h | ATCC 90030 | broth dilution | 31.25 µg/mL |
| CC(C)S(=O)(=O)Nc1ccc(CN(C)CC(O)(Cn2cncn2)c2ccc(F)cc2F)cc1 | MIC |  | 468 | resazurin | 14.6 µg/mL |
| O=c1c(OC2CCCC2)c(N2CCN(S(=O)(=O)NCc3ccccc3)CC2)cnn1-c1cccc(Cl)c1 | MIC |  | C454 | broth dilution | 1 µg/mL |
| COc1ccc(/C=N/NC(=O)c2ccc(CNc3nc4ccccc4[nH]3)cc2)cc1 | MIC |  | ATCC 36583 | broth dilution | 100 µg/mL |
| CCCCCOc1ccc(-c2cc(-c3ccc(C(=O)N[C@H]4C[C@@H](O)[C@@H](O)NC(=O)[C@@H]5[C@@H](O)[C@@H](C)CN5C(=O)[C@H]([C@H](O)CC(N)=O)NC(=O)[C@H]([C@H](O)[C@@H](O)c5ccc(O)c(OS(=O)(=O)O)c5)NC(=O)[C@@H]5C[C@@H](O)CN5C(=O)[C@H]([C@@H](C)O)NC4=O)cc3)no2)cc1 | EC50 |  | RC-201 | broth dilution | 0.016 µg/mL |
| O=C(COc1ccccc1)c1ccccc1 | MIC | 48 h | ATCC 90030 | broth dilution | >125 µg/mL |
| CCOC(=O)C1C(=O)C=C(c2ccc(Cl)cc2)CC1c1ccc(C2CC(c3ccc(Cl)cc3)=CC(=O)C2C(=O)OCC)cc1 | MIC |  | Clinical isolate |  | 6.25 µg/mL |
| COc1ccc(/C=N\O)cc1 | MFC |  |  | broth dilution | 6620 µM |
| O=C(COc1ccc(F)cc1)c1ccccc1 | MIC | 24 h | ATCC 90030 | broth dilution | >125 µg/mL |
| C[C@H]1[C@H](O)[C@@H](C)/C=C/C=C/C=C/C=C/C=C/C=C/C=C/[C@H](O[C@@H]2O[C@H](C)[C@@H](O)[C@H](N)[C@@H]2O)C[C@@H]2O[C@](O)(C[C@@H](O)C[C@@H](O)CC[C@H](O)[C@@H](O)C[C@@H](O)CC(=O)O[C@H]1C)C[C@H](O)[C@H]2C(=O)O | MIC |  |  | broth dilution | 1.56 µg/mL |
| COc1ccc(/C=N/O)cc1 | MIC |  |  |  | 6620 µM |

A second listing of 8 rows from above:

smiles	read-out	conditions	strain or isolate	method	value
CCCCCCCC/C=C\CCCCCCCC(=O)N[C@H](C(=O)N1C[C@H](C)C[C@H]1C(=O)N[C@H](C(=O)N[C@@H](CCO)C(=O)N[C@@H](C)CO)C(C)C)[C@@H](C)O	MIC		ATCC 90030	broth dilution / visual reading	>32 µg/mL
CCOC(=O)C1C(=O)C=C(c2ccc(C)cc2)CC1c1ccc(C2CC(c3ccc(C)cc3)=CC(=O)C2C(=O)OCC)cc1	MIC		Clinical isolate		100 µg/mL
O=C(c1ccccc1)C(c1ccccc1)n1nnc2ccccc21	MIC90			agar	>256 µg/mL
CCCC[C@@H](C)/C=C(C)/C=C(\C)C(=O)N/C(=C/[C@@](C)(O)/C=C/C=C/C=C/C(=O)NC1=C(O)CCC1=O)C(=O)[C@@H]1CO1	MIC		1	broth dilution	25 µM
CCCCCCCC/C=C\CCCCCCCC(=O)NCCCN	MIC		ATCC 90030	broth dilution	64 µg/mL
c1ccc(C(c2ccccc2)n2cncn2)cc1	MIC90			agar	0.5 µg/mL
CCCCCCCCCCCC[n+]1cccc2ccccc21	MIC	48 h	20/I	broth dilution	0.01562 µg/mL
O=C(N/N=C/c1ccc(Br)cc1)c1ccc(CNc2nc3ccccc3[nH]2)cc1	MIC		ATCC 36583	broth dilution	100 µg/mL

An empty or dashed field is not shown. MIC50, MIC90 and the like: level of inhibition, or share of isolates inhibited. ECn: concentration that inhibits the pathogen or its effect by n%.